A mixed list of measured activities; the numbers were collected in NIAID ChemDB.

Shared fields: target-level tests; organism: Plasmodium falciparum

ICn is the concentration giving n% inhibition.

| compound | measure | read by | protein | strain | mutations | result |
|---|---|---|---|---|---|---|
| O=C1C=C(C(F)F)C(=O)c2ccccc21 | IC50 |  | Glutathione reductase |  |  | 22.8 µM |
| O=C(CN1C(=O)SC(=Cc2ccc(OC(F)(F)F)cc2)C1=O)N1CCN(c2ccccc2)CC1 | IC50 | fluorescence | Falcipain-2 |  |  | 13.44 µM |
| CCOC(=O)C1=C(O)CSC1=Nc1ccc(Br)cc1C | IC50 |  | Dihydroorotate dehydrogenase |  |  | >50 µM |
| COc1cc(OC)c(C=C2SC(=O)N(C)C2=O)c(OC)c1 | IC50 | fluorescence | Falcipain-2 |  |  | >50 µM |
| CC1(C)N=C(N)N=C(N)N1OCCCOc1cc(Cl)c(Cl)cc1Cl | Ki | absorbance | Dihydrofolate reductase |  | quadruple mutant | 0.0019 µM |
| COc1ccc2ccccc2c1C=C1C(=O)OC(C)(C)OC1=O | IC50 | ELISA | Histidine-rich protein 2 |  |  | 41.72 µM |
| CC(C)C[C@H](NC(=O)C1CCC2(CC1)OOC1(OO2)C2CC3CC(C2)CC1C3)C(=O)N[C@H](/C=C/S(=O)(=O)c1ccccc1)CCc1ccccc1 | IC50 | fluorescence | Falcipain-2 |  |  | 1.802 µM |
| O=C(CN1C(=O)SC(=Cc2ccc(F)c(F)c2)C1=O)N1CCN(c2ccccc2)CC1 | IC50 | fluorescence | Falcipain-2 |  |  | >50 µM |
| O=C1C=C(O)c2ccccc2C1=O | IC50 |  | Glutathione reductase |  |  | >100 µM |
| O=C(CN1C(=O)SC(=Cc2ccccc2Br)C1=O)N1CCN(c2ccccc2)CC1 | IC50 | fluorescence | Falcipain-2 |  |  | 23.88 µM |
| CC1=CC(=O)c2ccccc2C1=O | IC50 |  | Glutathione reductase |  |  | 42 µM |
| CC(C)C[C@H](NC(=O)C1CCC(=O)CC1)C(=O)N[C@H](/C=C/S(=O)(=O)c1ccccc1)CCc1ccccc1 | IC50 | fluorescence | Falcipain-2 |  |  | 0.0691 µM |
| COc1cc(OC)c(C=C2SC(=O)N(Cc3ccc(F)cc3)C2=O)c(OC)c1 | IC50 | fluorescence | Falcipain-2 |  |  | >50 µM |
| CN(O)C(=O)CCC(c1ccccc1)P(=O)(O)O | IC50 | absorbance | PfDXR |  |  | 0.0031 µM |
| O=C1CSC(Nc2ccc3ccccc3c2)=C1CONCC1CC1 | IC50 |  | Dihydroorotate dehydrogenase |  |  | >50 µM |
| COc1cccc(NC(=O)CCP(=O)(O)O)c1 | IC50 | absorbance | PfDXR |  |  | >500 µM |
| CC1=C(C2CCC(c3ccc(Cl)cc3)CC2)C(=O)c2ccccc2C1=O | IC50 |  | Glutathione reductase |  |  | >25 µM |
| O=C(N[C@H](/C=C/S(=O)(=O)c1ccccc1)CCc1ccccc1)C1CCC2(CC1)OOC1(OO2)C2CC3CC(C2)CC1C3 | IC50 | fluorescence | Falcipain-2 |  |  | 18.46 µM |
| C=C1C(=O)C[C@@H]2/C=C(\COC(C)=O)CC/C=C(/C=O)[C@H](OC(C)=O)[C@@H](OC(=O)C(C)CC)[C@@H]12 | IC50 |  | Lactate dehydrogenase | 3D7 |  | 0.94 µg/mL |
| COc1cc(OC)c(C=C2SC(=O)N(Cc3ccccc3)C2=O)c(OC)c1 | IC50 | fluorescence | Falcipain-2 |  |  | 36.24 µM |
| CN(C)C(=O)/C=C/[C@H](CCc1ccccc1)NC(=O)CN1C(=O)[C@@H](COC(=O)Nc2ccc(Cl)cc2C(F)(F)F)N=C(c2ccccc2)c2ccccc21 | Ki | fluorescence | Falcipain-2 | FCBR |  | 0.95 µM |
| CCOP(=O)(CC(=O)Nc1cccc(Br)c1)OCC | IC50 | absorbance | PfDXR |  |  | >500 µM |
| O=C(CN1C(=O)SC(=Cc2ccccc2Cl)C1=O)N1CCN(c2ccccc2)CC1 | IC50 | fluorescence | Falcipain-2 |  |  | 15.8 µM |
| CC(C)C[C@H](NC(=O)C1CCC2(CC1)OOC1(OO2)C2CC3CC(C2)CC1C3)C(=O)N[C@H](/C=C/S(C)(=O)=O)CCc1ccccc1 | IC50 | fluorescence | Falcipain-2 |  |  | 1.53 µM |
| O=C(CCC(c1ccccc1)P(=O)(O)O)NO | Ki | absorbance | PfDXR |  |  | 0.0021 µM |
| Cc1ccc(N=C2SCC(O)=C2C(=O)O)cc1C | IC50 |  | Dihydroorotate dehydrogenase |  |  | >50 µM |

2 of the rows above, restated:

compound | measure | read by | protein | strain | mutations | result
Cc1ccc(N=C2SCC(O)=C2C(=O)O)cc1C | IC50 |  | Dihydroorotate dehydrogenase |  |  | >50 µM
CCOP(=O)(CC(=O)Nc1cccc(Br)c1)OCC | IC50 | absorbance | PfDXR |  |  | >500 µM

Lines come from different laboratories, so protocols vary. An empty or dashed field is not shown.